IC50 and EC50 data for one molecule are collected here from patent US20240327334A1, “Covalent Inhibitors As Antiviral Agents” (Enanta Pharmaceuticals, Inc., priority 2022, published 2024).

For test [1], the target named is SARS-CoV-2 Papain-like (PLpro) protease (Severe acute respiratory syndrome coronavirus 2, UniProt P0DTD1). Kind of test: SARS-CoV-2 Papain-like (PLpro) protease biochemical enzyme inhibition assay (ubiquitin-fluorophore substrate, Ub-R110). Particulars: read-out: PLpro IC50, run in duplicate. On the procedure: SARS-CoV-2 Papain-like (PLpro) protease biochemical enzyme inhibition assay: Ubiquitin-modified at the C-terminal with a masked fluorophore is used as a substrate for PLpro which cleaves the fluorophore and the unmasked free fluorophore generates a fluorescent signal. The fluorophore is either Rhodamine or AMC. A similar assay is also explored using ISG15-AMC. Procedure: 1) Transfer compounds to 384w assay plates using Echo according to the general platemaps. 2) Add 10 μL of 1× Assay Buffer to LOW control wells and 10 μL of 2× PLpro solution to other wells in the assay plate according to the platemap, spin at 800 rpm for 1 min and incubate at RT for 30 mins. 3) Add 10 μL of 2× substrate solution to each well of enzyme solution according to platemap. Spin at 800 rpm for 1 min and incubate assay at RT in the dark for 30 mins. 4) Spin at 800 rpm and read plates on Virology Envision for Ub-R110 the Ex/Em was 485/535 nm. 5) Normalize data to high and low controls and determine IC50 by fitting data to normalized response versus inhibitor (variable slope) using GraphPad Prism 7. All experiments were run in duplicate, and IC50 ranges are reported as follows: A<0.1 μM; B 0.1-1 μM; C 1-10 μM; D>10 μM.

A further test relates to SARS-CoV-2 replicon. Kind of test: SARS-CoV-2 Replicon Assay (Huh-7), Renilla luciferase reporter. Conditions: read-out: SARS-CoV-2 replicon EC50, Huh-7 cells. On the procedure:
White 384-well tissue-culture-treated clear-bottom plates are used in this assay. Using a Labcyte ECHO liquid dispenser, 3-fold serial dilutions of compounds suspended in DMSO are added to the inner 308 wells in duplicate in a total volume of 125 nL per well. Two columns are treated only with 125 nL DMSO, to be used as controls. […] HuH-7 cells at 1E7 cells/mL without RNA are electroporated as a low control. For each 100 μL electroporated cell suspension, 1150 μL pre-warmed (37° C.) media (DMEM, 1× GlutaMAX, 10% FBS) is added to the cells for a final concentration of 800 cells/μL. The electroporated cells are seeded into the 308 inner compound and control wells of the 384-well plate at 20,000 cells per well in a total volume of 25 μL. […] 25 μL of room temperature 1× Renilla-Glo Luciferase Assay Reagent (Promega) are added to each well and incubated at room temperature for 10 minutes and luminescence was measured on a Perkin Elmer EnVision. The Renilla-Glo reagent quantifies the amount of luciferase activity, which gives a measure of replicon activity present. The half-maximal effective concentration (EC50) was determined using GraphPad Prism. Percent residual activity of the replicon is determined after normalizing the curve to the mean RLU high control at 100% and the mean RLU low control at 0%. […]

With `COC(=O)/C=C/CNC(=O)C(=O)NCCc1ccccc1C(=O)N[C@H](C)c1cccc2ccccc12` [Example 37], the IC50 in test [1] is 100 to 1000 nM. Besides, the EC50 with SARS-CoV-2 replicon is less than 1000 nM.
